Pooled drug test results. Numbers come from NIAID ChemDB, via PubChem.

All rows: tests on isolated targets

ICn: concentration for n% inhibition. An empty or dashed field is not shown. Percent inhibition refers to the dose given; in toxicity tests it is the harm to the cells. Neighbouring rows are from separate reports. Two numbers with a dash give a range or band.

smiles | measure | target | dose | strain or isolate | agent | method | result
CC[C@H](NC(=O)[C@@H](NC(=O)[C@@H](NC(=O)[C@H](CC(C)C)NC(=O)[C@@H](CCC(=O)O)NC(=O)[C@H](CC(=O)O)NC(C)=O)[C@@H](C)CC)C1CCCCC1)C(=O)CCc1ccccc1 | inhibition | HCV NS3 protease | 10 µM | - | Hepatitis C virus | - | 82%
CC(C)C[C@@]1(C(=O)O)C[C@@H](c2nncs2)[C@H](c2nccs2)N1C(=O)c1ccc(C(C)(C)C)cc1 | IC50 | RNA-dependent RNA polymerase | - | - | Hepatitis C virus | - | <50 µM
c1ccc(-c2ccc(-c3nc4ccccc4[nH]3)cc2)nc1 | inhibition | NS5B RdRp activity | 100 µM | 1b | Hepatitis C virus | - | 6.2%
CC[C@H](NC(=O)[C@@H](NC(=O)[C@@H](NC(=O)[C@H](CC(C)C)NC(=O)[C@@H](CCC(=O)O)NC(=O)[C@H](CC(=O)O)NC(C)=O)[C@@H](C)CC)C1CCCCC1)C(=O)/C=C/c1nccs1 | inhibition | HCV NS3 protease | 1 µM | - | Hepatitis C virus | - | 50%
CN(C)c1ccc(-c2nc3ccccc3[nH]2)cc1 | inhibition | NS5B RdRp activity | 100 µM | 1b | Hepatitis C virus | - | 14.6%
NS(=O)(=O)c1ccc(CCNc2cc(C(=O)Nc3ccc4cn[nH]c4c3)c(F)cc2F)cc1 | inhibition | Reverse transcriptase | 0.1 µg/mL | - | Hepatitis B virus | - | 51%
CC[C@H](NC(=O)[C@@H](NC(=O)[C@@H](NC(=O)[C@H](CC(C)C)NC(=O)[C@@H](CCC(=O)O)NC(=O)[C@H](CC(=O)O)NC(C)=O)[C@@H](C)CC)C1CCCCC1)C(O)/C=C/c1ccccc1 | inhibition | HCV NS3 protease | 10 µM | - | Hepatitis C virus | - | 8%
CC(Cc1ccccn1)Nc1cc(C(=O)Nc2ccc3cn[nH]c3c2)c(F)cc1F | inhibition | Reverse transcriptase | 1 µg/mL | - | Hepatitis B virus | - | 58%
CC(=O)N[C@@H](CC(=O)O)C(=O)N[C@@H](CC1CCCCC1)C(=O)N[C@H](C(=O)N[C@@H](CCC(=O)O)C(=O)N[C@@H](CC1CCCCC1)C(=O)N[C@@H](CS)C(=O)C(=O)O)C(c1ccccc1)c1ccccc1 | Ki | NS3/NS4A serine protease | - | - | Hepatitis C virus | - | 109 µM
C/C=C/C(O)[C@H](CC)NC(=O)[C@@H](NC(=O)[C@@H](NC(=O)[C@H](CC(C)C)NC(=O)[C@@H](CCC(=O)O)NC(=O)[C@H](CC(=O)O)NC(C)=O)[C@@H](C)CC)C1CCCCC1 | inhibition | HCV NS3 protease | 10 µM | - | Hepatitis C virus | - | 7%
Cc1cccc(-c2cc3c(C(F)(F)F)cc(C(F)(F)F)nc3n3c(-c4ccc(Cl)cc4)cnc23)c1 | IC50 | Envelope glycoprotein 2 | - | JFH-1 | Hepatitis C virus | luciferase / reporter gene | >20 µM
CC(C)C[C@@]1(C(=O)O)C[C@@H](c2nc(Br)ns2)[C@H](c2nccs2)N1C(=O)c1ccc(C(C)(C)C)cc1 | IC50 | RNA-dependent RNA polymerase | - | - | Hepatitis C virus | - | <50 µM
O=C(O)c1cc2nc(-c3ccccc3)cc(-c3ccsc3)n2n1 | IC50 | RNA-dependent RNA polymerase | - | - | Hepatitis C virus | - | >10 µM
CC(C)c1ccc(-c2nc3ccccc3[nH]2)cc1 | inhibition | NS5B RdRp activity | 100 µM | 1b | Hepatitis C virus | - | 10.9%
CC(C)C[C@@]1(C(=O)O)C[C@@H](c2ncn[nH]2)[C@H](c2nccs2)N1C(=O)c1ccc(C(C)(C)C)cc1 | IC50 | RNA-dependent RNA polymerase | - | - | Hepatitis C virus | - | <50 µM
CC[C@H](NC(=O)[C@@H](NC(=O)[C@@H](NC(=O)[C@H](CC(C)C)NC(=O)[C@@H](CCC(=O)O)NC(=O)[C@H](CC(=O)O)NC(C)=O)[C@@H](C)CC)C1CCCCC1)C(=O)CCc1ccc(OC)cc1 | inhibition | HCV NS3 protease | 1 µM | - | Hepatitis C virus | - | 30%
Cc1noc([C@@H]2C[C@@](CC(C)C)(C(=O)O)N(C(=O)c3ccc(C(C)(C)C)cc3)[C@H]2c2cccs2)n1 | IC50 | RNA-dependent RNA polymerase | - | - | Hepatitis C virus | - | <50 µM
Cc1nc2cc(NC(=O)c3ccc(S(=O)(=O)N(C)Cc4ccccc4)cc3)ccc2s1 | IC50 | HBeAg production | - | - | Hepatitis B virus | ELISA | 0.35 µM
O=C(Nc1ccc2[nH]ncc2c1)c1cc(NCCCn2ccnc2)c(F)cc1F | inhibition | Reverse transcriptase | 1 µg/mL | - | Hepatitis B virus | - | 83%
CC(=O)N[C@@H](CC(=O)O)C(=O)N[C@H](CC(C(=O)O)C(=O)O)C(=O)N[C@@H](Cc1c[nH]c2cccc(C(=O)O)c12)C(=O)N[C@@H](CCC(=O)O)C(=O)N[C@@H](CC(=O)O)C(=O)N[C@@H](CS)C(=O)C(=O)O | Ki | NS3/NS4A serine protease | - | - | Hepatitis C virus | - | 0.0000027 µM
CC(C)C[C@@]1(C(=O)O)C[C@@H](c2nccs2)[C@H](c2nccs2)N1C(=O)c1ccc(C(C)(C)C)cc1 | IC50 | RNA-dependent RNA polymerase | - | - | Hepatitis C virus | - | <50 µM
c1ccc2[nH]c(-c3ccncc3)nc2c1 | inhibition | NS5B RdRp activity | 100 µM | 1b | Hepatitis C virus | - | 7.5%
CC[C@H](C)[C@H](NC(=O)[C@H](CCC(=O)O)NC(=O)[C@@H](NC(=O)[C@@H](CC(C(=O)O)C(=O)O)NC(=O)[C@H](CC(=O)O)NC(C)=O)C(c1ccccc1)c1ccccc1)C(=O)N[C@@H](CS)C(=O)C(=O)O | Ki | NS3/NS4A serine protease | - | - | Hepatitis C virus | - | 0.0002 µM
CN(C)CCNc1cc(C(=O)Nc2ccc3[nH]ncc3c2)c(F)cc1F | inhibition | Reverse transcriptase | 0.1 µg/mL | - | Hepatitis B virus | - | 53%
Cc1cc(NS(=O)(=O)c2cc(Cl)c(Cl)cc2Cl)no1 | IC50 | HCV NS5B polymerase | - | gt 1 | Hepatitis C virus | nucleotide incorporation | 100 µM
COc1cc(COc2ccc(-c3cnc4c(-c5nn[nH]n5)cnn4c3C3CCCCC3)cc2)cc(OC)c1 | IC50 | RNA-dependent RNA polymerase | - | - | Hepatitis C virus | - | <1 µM
O=C(Nc1ccc2cn[nH]c2c1)c1cc(NCCN2CCOCC2)c(F)cc1F | IC50 | Reverse transcriptase | - | - | Hepatitis B virus | - | >1 µg/mL
CC(=O)N[C@@H](CC(=O)O)C(=O)N[C@H](Cc1cc2ccccc2[nH]1)C(=O)N[C@H](C(=O)N[C@@H](CCC(=O)O)C(=O)N[C@@H](CC1CCCCC1)C(=O)N[C@@H](CS)C(=O)C(=O)O)C(c1ccccc1)c1ccccc1 | Ki | NS3/NS4A serine protease | - | - | Hepatitis C virus | - | 1.4 µM
Cc1nn2c(C3CCCCC3)c(-c3ccoc3)cnc2c1C(=O)O | IC50 | RNA-dependent RNA polymerase | - | - | Hepatitis C virus | - | >10 µM
O=C(Nc1ccc2[nH]ncc2c1)c1cc(NCCO)c(F)cc1F | inhibition | Reverse transcriptase | 0.01 µg/mL | - | Hepatitis B virus | - | 43%
CC(=O)N[C@@H](CC(=O)O)C(=O)N[C@H](CC(C(=O)O)C(=O)O)C(=O)N[C@H](C(=O)N[C@@H](CCC(=O)O)C(=O)N[C@@H](CC1CCCCC1)C(=O)N[C@@H](CS)C(=O)C(=O)O)C(C)C | Ki | NS3/NS4A serine protease | - | - | Hepatitis C virus | - | 0.019 µM
CC[C@H](NC(=O)[C@@H](NC(=O)[C@@H](NC(=O)[C@H](CC(C)C)NC(=O)[C@@H](CCC(=O)O)NC(=O)[C@H](CC(=O)O)NC(C)=O)[C@@H](C)CC)C1CCCCC1)C(=O)/C=C/c1ccc(OC)cc1 | inhibition | HCV NS3 protease | 1 µM | - | Hepatitis C virus | - | 64%
COC(=O)c1ccc(-c2cnc3ccc4c(C(F)(F)F)cc(C(F)(F)F)nc4n23)cc1 | IC50 | Envelope glycoprotein 2 | - | JFH-1 | Hepatitis C virus | luciferase / reporter gene | 13.8 µM
COc1ccc(-c2cc(-c3ccc(C(F)(F)F)cc3)nc3cc(C(=O)O)nn23)cc1Cl | IC50 | RNA-dependent RNA polymerase | - | - | Hepatitis C virus | - | 1–10 µM
O=C(Nc1ccc2[nH]ncc2c1)c1cc(NCCc2ccccn2)c(F)cc1F | inhibition | Reverse transcriptase | 1 µg/mL | - | Hepatitis B virus | - | 58%
Cc1cccc(COc2ccc(-c3cnc4c(-c5nn[nH]n5)cnn4c3C3CCCCC3)cc2)c1 | IC50 | RNA-dependent RNA polymerase | - | - | Hepatitis C virus | - | 1–10 µM
CC(=O)N[C@@H](CC(=O)O)C(=O)N[C@H](CC(C(=O)O)C(=O)O)C(=O)N[C@@H](CC1CCCCC1)C(=O)N[C@@H](CCC(=O)O)C(=O)N[C@@H](CC1CCCCC1)C(=O)N[C@@H](CS)C(=O)C(=O)O | Ki | NS3/NS4A serine protease | - | - | Hepatitis C virus | - | 0.0003 µM
O=C(O)c1cc(Br)ccc1NS(=O)(=O)c1cc(Cl)c(Cl)cc1Cl | IC50 | HCV NS5B polymerase | - | gt 1 | Hepatitis C virus | nucleotide incorporation | 9 µM
Cc1ccccc1-c1cc2c(C(F)(F)F)cc(C(F)(F)F)nc2n2c(-c3ccccc3)cnc12 | IC50 | Envelope glycoprotein 2 | - | JFH-1 | Hepatitis C virus | luciferase / reporter gene | >20 µM
COc1cc(C(=O)N2[C@@H](c3nccs3)[C@@H](c3nc(C)no3)C[C@@]2(CC(C)C)C(=O)O)ccc1C(C)(C)C | IC50 | RNA-dependent RNA polymerase | - | - | Hepatitis C virus | - | <50 µM
CCn1c(-c2ccc(C(C)C)cc2)nc2ccccc21 | inhibition | NS5B RdRp activity | 100 µM | 1b | Hepatitis C virus | - | 14.6%
CN(C)CCNc1cc(C(=O)Nc2ccc3cn[nH]c3c2)c(F)cc1F | IC50 | Reverse transcriptase | - | - | Hepatitis B virus | - | >1 µg/mL
FC(F)(F)c1cc(C(F)(F)F)c2ccc3ncc(-c4ccccc4)n3c2n1 | IC50 | Envelope glycoprotein 2 | - | - | Hepatitis C virus | luciferase / reporter gene | 12 µM
CC(C)C[C@@]1(C(=O)O)C[C@H](c2nccs2)[C@H](c2nccs2)N1C(=O)c1ccc(C(C)(C)C)cc1 | IC50 | RNA-dependent RNA polymerase | - | - | Hepatitis C virus | - | <50 µM
O=C(Nc1ccc2cn[nH]c2c1)c1cc(NCCc2ccccn2)c(F)cc1F | IC50 | Reverse transcriptase | - | - | Hepatitis B virus | - | 0.1–1 µg/mL